Compound potency records, mixed from different reports. Data source: NIAID ChemDB in PubChem.

All rows: whole-cell or culture tests

Percent inhibition refers to the dose given; in toxicity tests it is the harm to the cells. Lines come from different laboratories, so protocols vary. ECn is the concentration giving n% inhibition of infection, replication or growth. An empty or dashed field is not shown.

{"compound": "Cc1ccc(N(C)C(=O)c2c[n+]3c(cn2)CN=C3c2ccc(C(F)(F)F)cc2)nn1", "species": "Plasmodium yoelii", "method": "SYBR Green", "endpoint": "EC50", "result": ">10 µM"}
{"compound": "Clc1ccc2c(=Nc3ccc(Oc4ccccc4)cc3)ccn(CCCN3CCCCC3)c2c1", "species": "Plasmodium berghei", "cell line": "Huh7", "method": "luciferase", "endpoint": "EC50", "result": ">1 µM"}
{"compound": "CC[C@H]1OC(=O)[C@H](C)[C@@H](OC2C[C@@](C)(OC)[C@@H](O)[C@H](C)O2)[C@H](C)[C@@H](OC2O[C@H](C)C[C@H](N(C)C)[C@H]2O)[C@](C)(OC2C[C@@H](N(C)C)[C@@H](O)[C@H](C)O2)C[C@@H](C)CN(C)[C@H](C)[C@@H](O)[C@]1(C)O", "species": "Plasmodium falciparum", "strain": "W2 Mef", "cell line": "RBC", "method": "fluorescence", "conditions": "48 h", "endpoint": "EC50", "result": "1.8 µM"}
{"compound": "CCO/C(=N/NC(=O)NCc1ccccc1)C(C)(O)c1ccc(Cl)c(Cl)c1", "species": "Plasmodium falciparum", "strain": "3D7", "method": "hypoxanthine uptake / radiometric", "endpoint": "inhibition", "dose": "5 µM", "result": "19%"}
{"compound": "CCN(CC)CCN1C(=O)c2ccccc2NC1c1cccc(F)c1", "species": "Plasmodium berghei", "strain": "ANKA", "method": "luciferase", "endpoint": "EC50", "result": "20 µM"}
{"compound": "FC(F)(F)c1ccc2c(=Nc3ccc(-c4ccccc4)cc3)ccn(CCCN3CCCCC3)c2c1", "species": "Plasmodium berghei", "cell line": "Huh7", "method": "luciferase", "endpoint": "EC50", "result": ">1 µM"}
{"compound": "CCN(CC)CCN1C(=O)c2ccccc2NC1c1ccc(C)cc1", "species": "Plasmodium berghei", "strain": "ANKA", "method": "luciferase", "endpoint": "EC50", "result": "2.4 µM"}
{"compound": "CC(C)(C)OC(=O)N/N=C(/OCCc1ccccc1)C(C)(O)c1ccc(Cl)c(Cl)c1", "species": "Plasmodium falciparum", "strain": "3D7", "method": "hypoxanthine uptake / radiometric", "endpoint": "inhibition", "dose": "5 µM", "result": "0%"}
{"compound": "CCN(CC)CCCC(C)Nc1ccnc2cc(Cl)ccc12", "species": "Plasmodium falciparum", "strain": "Dd2", "conditions": "24 h", "endpoint": "inhibition", "dose": "0.031 µg/mL", "result": "10%"}
{"compound": "CCN(CC)CCN1C(=O)c2ccccc2NC1c1ccccc1F", "species": "Plasmodium berghei", "strain": "ANKA", "method": "luciferase", "endpoint": "EC50", "result": ">20 µM"}
{"compound": "CCOC(=O)N/N=C(/OCC)C(C)(O)c1ccc2ccccc2c1", "species": "Plasmodium falciparum", "strain": "3D7", "method": "hypoxanthine uptake / radiometric", "endpoint": "inhibition", "dose": "5 µM", "result": "83%"}
{"compound": "Cc1ccc(N=c2ccn(CCCN3CCCCC3)c3cc(Cl)ccc23)cc1", "species": "Plasmodium berghei", "cell line": "Huh7", "method": "luciferase", "endpoint": "EC50", "result": ">1 µM"}
{"compound": "CC[C@H]1OC(=O)[C@H](C)[C@@H](OC2C[C@@](C)(OC)[C@@H](O)[C@H](C)O2)[C@H](C)[C@@H](OC2O[C@H](C)C[C@H](N(C)C)[C@H]2O)[C@](C)(O)C[C@@H](C)CN(C)[C@H](C)[C@@H](O)[C@]1(C)O", "species": "Plasmodium falciparum", "strain": "3D7", "cell line": "RBC", "method": "fluorescence", "conditions": "48 h", "endpoint": "EC50", "result": "18.2 µM"}
{"compound": "CC(C)(C)OC(=O)N/N=C(/OCc1ccccc1)C(C)(O)c1ccc(Cl)c(Cl)c1", "species": "Plasmodium falciparum", "strain": "3D7", "method": "hypoxanthine uptake / radiometric", "endpoint": "inhibition", "dose": "5 µM", "result": "0%"}
{"compound": "Clc1ccc2c(c1)c(=Nc1ccc(-c3ccccc3)cc1)ccn2CCCN1CCCCC1", "species": "Plasmodium berghei", "cell line": "Huh7", "method": "luciferase", "endpoint": "EC50", "result": ">1 µM"}
{"compound": "CO/C(=N/NC(=O)OC(C)(C)C)C(C)(O)c1ccc(Cl)c(Cl)c1", "species": "Plasmodium falciparum", "strain": "3D7", "method": "hypoxanthine uptake / radiometric", "endpoint": "inhibition", "dose": "5 µM", "result": "66%"}
{"compound": "CN[C@@H](CC1=CN=c2c(O)c3c(c(O)c21)=NC=CS3(=O)=O)C(=O)O", "species": "Plasmodium falciparum", "strain": "3D7", "endpoint": "MIC", "result": "0.279 µM"}
{"compound": "CCO/C(=N/NC(=O)NCc1ccc(Cl)cc1)C(C)(O)c1ccc(Cl)c(Cl)c1", "species": "Plasmodium falciparum", "strain": "3D7", "method": "hypoxanthine uptake / radiometric", "endpoint": "inhibition", "dose": "5 µM", "result": "0%"}
{"compound": "CCN(CC)CCN1C(=O)c2ccccc2NC1c1ccc(OC)c(COc2ccc(NC(C)=O)cc2)c1", "species": "Plasmodium berghei", "strain": "ANKA", "method": "luciferase", "endpoint": "EC50", "result": "11 µM"}

A second listing of 2 rows from above:

compound	species	strain	cell line	method	conditions	endpoint	dose	result
Clc1ccc2c(c1)c(=Nc1ccc(-c3ccccc3)cc1)ccn2CCCN1CCCCC1	Plasmodium berghei		Huh7	luciferase		EC50		>1 µM
CC(C)(C)OC(=O)N/N=C(/OCCc1ccccc1)C(C)(O)c1ccc(Cl)c(Cl)c1	Plasmodium falciparum	3D7		hypoxanthine uptake / radiometric		inhibition	5 µM	0%